US6387886B1, “Method for the treatment of severe chronic bronchitis (bronchietasis) with an aerosolized antibiotic” (Chiron Corporation, priority 1998, dated 2002)

Assay: In vitro comparative nebulizer evaluation
Details: ultrasonic DeVilbiss 99 nebulizer, 600 mg

SMILES: NC[C@H]1O[C@H](O[C@H]2[C@H](O)[C@@H](O[C@H]3O[C@H](CO)[C@@H](O)[C@H](N)[C@H]3O)[C@H](N)C[C@@H]2N)[C@H](N)C[C@@H]1O [tobramycin]
- drug delivered: 33 mg/mL
